Consider four compounds from patent US20170044150A1, “IDENTIFICATION OF COMPOUNDS WHICH INHIBIT ATG8-ATG3 PROTEIN-PROTEIN INTERACTION AND THEIR USE AS ANTIPARASITICAL AGENTS” (THE JOHNS HOPKINS UNIVERSITY, priority 2014, published 2017).

This data set has as its system P. falciparum 3D7. In words: SYBR Green I growth inhibition assay, blood stage. It is filed as cell-based. The conditions noted are these: -log (IC50)/number of heavy atoms. The method, then: P. falciparum blood stage culturing. P. falciparum 3D7 and FCR3 cultures were maintained using modified, previously published methods at 37° C., 2% hematocrit of human red blood cells (Science 1976, 193, 673-675). Complete culture media consisted of sterile RPMI 1640 media (Life Technologies), supplemented with 10% human serum, 0.005% hypoxanthine, and buffered with final concentrations of 0.6% HEPES and 0.26% NaHCO3. The FCR3 strain was maintained at 3% CO2 and 5% O2, 92% N2 atmosphere, while the 3D7 strain was maintained at 5% CO2, 5% O2, 90% N2 atmosphere.
SYBR Green I growth inhibition assay. 10 μL of 10× compound diluted in RPMI 1640 media (Gibco) with a constant concentration of 1% DMSO was added to a 96 well plate (Costar), 90 μL of 1.5% ring stage, synchronized with 5% w/v sorbitol P. falciparum 3D7 parasites, 1% hematocrit, in culture media with 10% v/v human serum with 10 μg/mL gentamycin. Each compound concentration and 1% v/v DMSO controls were run in triplicate. Plates were incubated at 37° C. in 5% O2, 5% CO2 and 90% N2 for 72 hours. Plates were frozen, thawed, and incubated with 100-μL 2× SYBR green in lysis buffer (20 mM Tris pH 7.5, 5 mM EDTA, 0.008% Saponin, 0.08% TritonX-100) in the dark for at least one hour. Fluorescence was measured with a plate reader (HTS 7000, Perkin Elmer) at excitation/emission wavelengths of 485/535 nm.
Plasmodium parasite growth inhibition assay. P. falciparum 3D7 parasites were cultured as previously described (J Med Chem 57:4521-4531(2014)). Briefly, the parasites were cultured in 10% v/v human serum with 10 μg/mL gentamycin and synchronized with 5% w/v sorbitol. 1.5% ring stage parasites were added to 96 well plates (Costar) containing serial dilutions, performed in triplicate, of compound in RPMI 1640 media (Gibco). Plates were incubated at 37° C. in 5% O2, 5% CO2, and 90% N2 for 72 h. Plates were frozen, thawed, and incubated with 100 μL 2× SYBR green in lysis buffer (20 mM Tris pH 7.5, 5 mM EDTA, 0.008% Saponin, 0.08% TritonX-100) in the dark for 1 h. Fluorescence was measured with a plate reader (HTS 7000, PerkinElmer) at excitation/emission wavelengths of 485/535 nm.

Molecules are shown by their SMILES.

For `Cc1ccc(Nc2nc(-c3ccccn3)cs2)cc1` [Compound 1, N-(4-methylphenyl)-4-pyridin-2-yl-1,3-thiazol-2-amine], the “LEAN (Blood stage)” value is recorded as 0.31.
With `CSc1ccccc1C(=O)Nc1nc(-c2ccccn2)cs1` [Compound 2, 2-methylsulfanyl-N-(4-pyridin-2-yl-1,3-thiazol-2-yl)benzamide] the figure was 0.30; with `O=C(Nc1nc(-c2ccccn2)cs1)c1ccccc1Br` [Compound 3, 2-bromo-N-(4-pyridin-2-yl-1,3-thiazol-2-yl)benzamide], 0.35.
For the compound `O=C(CCCC[C@H]1SC[C@H]2NC(=O)N[C@H]21)NCCCCCC(=O)NNCc1ccc(C(=O)Nc2nc(-c3ccccn3)cs2)cc1` [Compound 8, 4-[[2-[6-[5-[(3aR,4R,6aS)-2-Oxo-1,3,3a,4,6,6a-hexahydrothieno[3,4-d]imidazol-4-yl]pentanoylamino]hexanoyl]hydrazinyl]methyl]-N-(4-pyridin-2-yl-1,3-thiazol-2-yl)benzamide], the “LEAN (Blood stage)” value stood at 0.23.
